Results of unrelated studies side by side (data: NIAID ChemDB).

Common to all: whole-cell or culture tests; species: Rhinovirus; endpoint: inhibition

Two numbers with a dash give a range or band. Conditions beyond the fields shown may differ between rows. An empty or dashed field is not shown. Inhibition is in % at the dose shown (toxicity tests: loss of growth or viability).

compound | cells | strain or isolate | method | tested at | result
Cc1cc(Cl)ccc1Cn1cnc2c(N(C)C)nc(C(F)(F)F)nc21 | M-HELA | Serotype 21 | plaque count | 8 µM | 22%
O=S(=O)([O-])c1cc(NS(=O)(=O)c2ccccc2)c2c(S(=O)(=O)[O-])cc(S(=O)(=O)[O-])cc2c1 | Human embryonic lung cells |  | cytopathic effect | 10 µg/mL | 50%
CN(C)c1nc(C(F)(F)F)nc2c1ncn2Cc1ccc(Br)cc1 | M-HELA | Serotype 13 | plaque count | 8 µM | 40%
O=C(Nc1ccc2cc(S(=O)(=O)[O-])cc(S(=O)(=O)[O-])c2c1)c1ccccc1 | Human embryonic lung cells |  | cytopathic effect | 50 µg/mL | 63%
CN(C)c1nc(C(F)(F)F)nc2c1ncn2Cc1ccc(C(F)(F)F)cc1 | M-HELA | Serotype 13 | plaque count | 8 µM | 22%
O=C(O)Cc1csc(/N=C2\SC[C@@H]3Cc4ccccc4CN23)n1 | MRC-5 | Serotype 14 | cytopathic effect | 10 µg/mL | 80–100%
Cc1cc(-c2ccc(N=Nc3c(S(=O)(=O)O)cc4cc(S(=O)(=O)O)cc(N)c4c3O)c(C)c2)ccc1N=Nc1c(S(=O)(=O)O)cc2cc(S(=O)(=O)O)cc(N)c2c1O | Human embryonic lung cells |  | cytopathic effect | 10 µg/mL | 0%
CSc1ccc(Cn2cnc3c(N(C)C)nc(C(F)(F)F)nc32)cc1 | M-HELA | Serotype 21 | plaque count | 8 µM | 35%
Cc1ccc(N2CCC(c3cccc(C(F)(F)F)c3)C2)nn1 |  | 17 serotypes |  | 0.55 µg/mL | 53%
Cc1cc(-c2ccc(N=Nc3c(N)c(S(=O)(=O)O)cc4cc(S(=O)(=O)O)ccc34)c(C)c2)ccc1N=Nc1c(N)ccc2cc(S(=O)(=O)O)ccc12 | Human embryonic lung cells |  | cytopathic effect | 10 µg/mL | 20%
Cc1ccccc1Cn1cnc2c(N(C)C)nc(C(F)(F)F)nc21 | M-HELA | Serotype 8 | plaque count | 8 µM | 44%
CCOc1cc(O)c(C(=O)/C=C/c2ccc(OC)cc2)c(OC)c1 |  | 17 serotypes |  | 0.775 µg/mL | 71%
N#Cc1cc([N+](=O)[O-])ccc1Oc1ccc(Cl)c(Cl)c1 | VERO | TYPE 1A |  | 1.56 µg/mL | 83%
NCCS(=O)(=O)O | Human embryonic lung cells |  | cytopathic effect | 5 µg/mL | 15%
Cc1ccc(Cn2cnc3c(N(C)C)nc(C(F)(F)F)nc32)c(C)c1 | M-HELA | Serotype 3 | plaque count | 8 µM | 40%
NS(=O)(=O)O | Human embryonic lung cells |  | cytopathic effect | 50 µg/mL | 0%
CCCCCCCCCCCCCCOc1ccc(C(C)=O)o1 |  | 17 serotypes |  | 0.355 µg/mL | 53%
Nc1cc(S(=O)(=O)[O-])cc2cc(S(=O)(=O)[O-])ccc12 | Human embryonic lung cells |  | cytopathic effect | 10 µg/mL | 50%
Cc1ccc(Cn2cnc3c(N(C)C)nc(C(F)(F)F)nc32)cc1 | M-HELA | Serotype 8 | plaque count | 2.5 µM | 41%
Cc1ccc(Cn2cnc3c(N(C)C)nc(C(F)(F)F)nc32)cc1 | M-HELA | TYPE 4 | plaque count | 2.5 µM | 41%
COc1ccc(N2CCN(c3cccc(C)c3)CC2)nn1 |  | 17 serotypes |  | 11.7 µg/mL | 71%
CN(C)c1nc(C(F)(F)F)nc2c1ncn2Cc1ccc(Cl)cc1Cl | M-HELA | Serotype 29 | plaque count | 8 µM | 15%
O=S(=O)([O-])c1ccccc1S(=O)(=O)[O-] | Human embryonic lung cells |  | cytopathic effect | 50 µg/mL | 0%
FC(F)(F)c1cccc(C2CCN(c3ccc(Cl)nn3)C2)c1 |  | 100 serotypes |  | 0.156 µg/mL | 53%